Anti-infective test results gathered from many reports (values: NIAID ChemDB through PubChem).

Common to all: growth or infection tests; species: HIV-1; read-out: inhibition

An empty or dashed field is not shown.

| SMILES | strain | mutations | cell line | read by | setting | dose | result |
|---|---|---|---|---|---|---|---|
| C/C(=C(/CCO)SSCC1CCCO1)N(C=O)Cc1cnc(C)nc1N | MN |  | H9/HIV-1(MN) + H9 | p24 |  | 50 µM | 96% |
| C/C=C(\C)C(=O)O[C@@H]1[C@@H](OC(=O)c2ccccc2)[C@]2(C)[C@@H](C(C)=O)CC[C@]2(O)[C@]2(O)CC[C@H]3C[C@@H](O[C@H]4C[C@@H](OC)[C@H](O[C@@H]5OC(C)[C@@H](O[C@@H]6OC(CO)[C@@H](O)[C@H](O)C6O)[C@H](OC)C5O)C(C)O4)CC[C@]3(C)[C@@H]12 |  |  | SupT1 | luciferase | pseudotyped | 30 µM | 29.77% |
| c1cc(CN2CCCNCCNCCCNCC2)ccc1CN1CCCNCCNCCCNCC1 | SW38 CLADE C R5 |  | PBMC | p24 |  | 0.5 µM | 0% |
| Nc1nc2c(ncn2[C@@H]2C[C@H](CO)[C@H]2CO)c(=O)[nH]1 | IIIB |  | MOLT-4 | p24 |  | 75 µM | 90% |
| O=C(O)P(=O)(O)O | IIIB |  | PBL | RT activity | 28 d | 16 µM | 36% |
| O=S(=O)(O)c1cc(N=C=S)ccc1CCc1ccc(N=C=S)cc1S(=O)(=O)O | GB8 |  | JM | p24 |  | 100 µg/mL | 100% |
| Cc1cn([C@H]2C[C@H](N=[N+]=[N-])[C@@H](COP(=O)(O)OC[C@H]3OC(O)[C@H](O)[C@@H](O)[C@@H]3O)O2)c(=O)[nH]c1=O | LAV-Bru |  | U-937 | RT activity | 14 d | 1 µM | 9% |
| O=C(O)c1cc(O)c(O)c(O)c1 | IIIB |  | MOLT-3 | syncytia |  | 10 µg/mL | 75% |
| C/C=C(\C)C(=O)O[C@@H]1[C@@H](OC(=O)c2ccccc2)[C@@H]2[C@@]3(C)CC[C@H](O[C@H]4C[C@@H](OC)[C@H](O[C@@H]5OC(C)[C@@H](O[C@@H]6OC(CO)[C@@H](O)[C@H](O)C6O)[C@H](OC)C5O)C(C)O4)C[C@@H]3CC[C@@]2(O)[C@@]2(O)CC[C@H](C(C)=O)[C@@]12C |  |  | SupT1 | luciferase | pseudotyped | 30 µM | 25.57% |
| Cc1cn([C@H]2C[C@H](N=[N+]=[N-])[C@@H](CO)O2)c(=O)[nH]c1=O | LAV-Bru |  | U-937 | RT activity | 14 d | 25 µM | 0% |
| C/C=C(\C)C(=O)O[C@@H]1[C@@H](OC(=O)c2ccccc2)[C@@H]2[C@@]3(C)CC[C@H](O[C@H]4C[C@@H](OC)[C@H](O[C@@H]5OC(C)[C@@H](O[C@@H]6OC(CO)[C@@H](O)[C@H](O)C6O)[C@H](OC)C5O)C(C)O4)CC3=CC[C@@]2(O)[C@@]2(O)CC[C@H](C(C)=O)[C@@]12C |  |  | SupT1 | luciferase | pseudotyped | 30 µM | 53.48% |
| C[C@@H](Cn1cnc2c(N)ncnc21)OCP(=O)(O)O | BaL |  | Macrophage + Monocytes/macrophages | p24 |  | 0.5 µM | 20% |
| CN=C1CN=C(c2ccc[nH]2)c2cc(Cl)ccc2N1 | RF |  | C8166 | p24 |  | 3 µM | 90% |
| C/C=C(\C)C(=O)O[C@@H]1[C@@H](OC(=O)c2ccccc2)[C@]2(C)[C@@H](C(C)=O)CC[C@]2(O)[C@]2(O)CC[C@H]3C[C@@H](O[C@H]4C[C@@H](OC)C(O[C@@H]5OC(C)C(O[C@@H]6OC(CO)C(O[C@@H]7OC(CO)C(O)[C@H](O)C7O)[C@H](O)C6O)[C@H](OC)C5O)C(C)O4)CC[C@]3(C)[C@@H]12 |  |  | SupT1 | luciferase | pseudotyped | 30 µM | 29.09% |
| O=C(O)/C=C/c1ccc[c]([Sb](=[O])([OH])[OH])c1 | 92US077 X4/R5 clinical isolate |  | MAGI | β-galactosidase |  | 20 µM | 55.9% |
| C/C=C(\C)C(=O)O[C@@H]1[C@@H](OC(C)=O)[C@H]2[C@@H](CC=C3C[C@@H](O[C@H]4C[C@@H](OC)[C@H](O[C@@H]5OC(C)[C@@H](O[C@@H]6OC(CO)[C@@H](O)[C@H](O)C6O)[C@H](OC)C5O)C(C)O4)CC[C@@]32C)[C@@]2(O)CC[C@H](C(C)=O)[C@@]12C |  |  | SupT1 | luciferase | pseudotyped | 30 µM | 16.48% |
| CN=C1CN=C(c2ccc[nH]2)c2cc(Cl)ccc2N1 | LAV-1 |  | HT4 + HT4-6C | syncytia |  | 1 µM | 68% |
| O=c1[nH]cnc2c1ncn2[C@H]1CC[C@@H](CO)O1 | IIIB |  | PBMC | p24 |  | 0.25 µM | 30% |
| COc1ccc(OC[C@@H]2CNCC[C@H]2c2ccccc2)cc1 | IIIB |  | MOLT-3 | syncytia |  | 4 µg/mL | 5% |
| C/C=C(\C)C(=O)O[C@@H]1[C@@H](OC(=O)c2ccccc2)[C@H]2[C@@H](CC[C@H]3C[C@@H](O[C@H]4C[C@@H](OC)[C@H](O[C@@H]5OC(C)[C@@H](O[C@@H]6OC(CO)[C@@H](O[C@@H]7OC(CO)[C@@H](O)[C@H](O)C7O)[C@H](O)C6O)[C@H](OC)C5O)C(C)O4)CC[C@@]32C)[C@@]2(O)CC[C@H](C(C)=O)[C@@]12C |  |  | SupT1 | luciferase | pseudotyped | 30 µM | 24.15% |
| COC(=O)C(O)[C@H]1[C@]2(C)C[C@]3(O)[C@@](O)(C(=O)C4=C(CC[C@]5(C)C4=CC(=O)O[C@H]5c4ccoc4)[C@]13C)[C@H]2OC(=O)C(C)C | NL4-3 |  | SupT1 | luciferase / luminescence | pseudotyped | 100 µM | 99.44% |
| CC(C)[C@H](NC(=O)c1ccc2ccccc2n1)C(=O)N[C@@H](Cc1ccccc1)[C@H](O)CN1CC[C@@H](OCc2ccncc2)C[C@H]1C(=O)NC(C)(C)C | IIIB |  | C8166 | p24 |  | 0.025 µM | 90% |
| Cc1cn([C@H]2C[C@H](N=[N+]=[N-])[C@@H](CCP(O[Si](C)(C)C)O[Si](C)(C)C)O2)c(=O)[nH]c1=O | NL4.3 p24 antigen |  | MAGI | β-galactosidase |  | 400 µM | 0% |
| COC(=O)C(O)[C@H]1[C@]2(C)C[C@@]3(OC(=O)C(C)C)[C@]1(C)[C@H]1CC[C@]4(C)C(=CC(=O)O[C@H]4c4ccoc4)[C@@]1(O)[C@@]3(O)C(=O)[C@H]2OC(C)=O | NL4-3 |  | SupT1 | luciferase / luminescence | pseudotyped | 100 µM | 31.83% |
| CO[C@@H]1C(O)[C@H](O[C@@H]2C(C)O[C@@H](O[C@H]3CC[C@@]4(C)[C@@H](CC[C@@H]5[C@@H]4[C@H](OC(C)=O)[C@@H](OC(=O)c4ccccc4)[C@]4(C)[C@@H](C(C)=O)CC[C@]54O)C3)C[C@H]2OC)OC(C)[C@H]1O[C@@H]1OC(CO)[C@@H](O[C@@H]2OC(CO)[C@@H](O)[C@H](O)C2O)[C@H](O)C1O |  |  | SupT1 | luciferase | pseudotyped | 30 µM | 36.87% |
| OCCN1CCN(CC/C=C2/c3ccccc3Sc3ccc(C(F)(F)F)cc32)CC1 | IIIB |  | MOLT-3 | RT activity |  | 2 µg/mL | 57% |
| CC(C)c1nc(CN(C)C(=O)N[C@H](C(=O)N[C@@H](Cc2ccccc2)C[C@H](O)[C@H](Cc2ccccc2)NC(=O)OCc2cncs2)C(C)C)cs1 | IIIB |  | MAGI | β-galactosidase |  | 1 µg/mL | 0% |
| NCCCCCCCCCCC(=O)O | IIIB |  | CEM + CEM-SS | cytopathic effect / XTT |  | 0.6 µM | 18.9% |
| COc1ccc(OC[C@@H]2CN(C)CC[C@H]2c2ccccc2)cc1 | IIIB |  | MOLT-3 | syncytia |  | 20 µg/mL | 50% |
| Cc1cn([C@H]2C[C@H](N=[N+]=[N-])[C@@H](CO)O2)c(=O)[nH]c1=O |  |  | U1 | p24 |  | 0.1 µM | 30.6% |
| Nc1ccn([C@H]2CC[C@@H](CO)O2)c(=O)n1 | LAV-1 |  | HT4 + HT4-6C | syncytia |  | 0.0316 µM | 72% |
| O=C(O)CCCCCCCCCCCc1ccccc1 | IIIB |  | CEM + CEM-SS | cytopathic effect / XTT |  | 20 µM | 15.3% |
| C[C@H](Cn1cnc2c(N)ncnc21)OCP(=O)(O)O | BaL |  | Macrophage + Monocytes/macrophages | p24 / syncytia |  | 0.5 µM | 98% |
| CN1CC[C@@H](c2ccccc2)[C@H](COc2ccc3c(c2)OCCO3)C1 | IIIB |  | MOLT-3 | syncytia |  | 0.8 µg/mL | 3% |
| CCC[C@@]1(CCc2ccccc2)CC(O)=C([C@H](CC)c2cccc(NS(=O)(=O)c3ccc(C(F)(F)F)cn3)c2)C(=O)O1 | Isolate N. Amer 4 |  | PBMC | p24 |  | 0.15 µM | 90% |
| O=C(O)CCCCCCCCCCCO | IIIB |  | CEM + CEM-SS | cytopathic effect / XTT |  | 20 µM | 24.7% |
| Cc1ccnc2c1NC(=O)c1cccnc1N2C1CC1 | Ba-L-85 |  | Macrophage | p24 |  | 0.1 µM | 63% |
| O=C1N(Cc2ccc(CO)cc2)[C@H](Cc2ccccc2)[C@H](O)[C@@H](O)[C@@H](Cc2ccccc2)N1Cc1ccc(CO)cc1 | Clinical isolate D3 |  | PBMC | p24 |  | 0.16 µM | 90% |
| O=C(O)CCCCCCCCCCCF | IIIB |  | CEM + CEM-SS | cytopathic effect / XTT |  | 63.2 µM | 48.6% |
| CCCCCCCCCCCCCCCCOP(=O)(OC[C@H]1OC(O)[C@H](O)[C@@H](O)[C@@H]1O)OC[C@H]1O[C@@H](n2cc(C)c(=O)[nH]c2=O)C[C@@H]1N=[N+]=[N-] | LAV-Bru |  | CEM | RT activity | 22 d | 1 µM | 0% |
| COC(=O)C(O)[C@H]1C(C)(C)[C@H](OC(C)=O)[C@]2(O)[C@@H](OC(=O)C(C)C)[C@@]34O[C@]2(O)[C@]1(C)[C@H]3CC[C@]1(C)C4=CC(=O)O[C@H]1c1ccoc1 | NL4-3 |  | SupT1 | luciferase / luminescence | pseudotyped | 100 µM | 59.33% |
| Cc1cn([C@H]2C[C@H](N=[N+]=[N-])[C@@H](CO)O2)c(=O)[nH]c1=O | LAV-1 |  | CEM | virus yield |  | 0.1 µM | 90% |
| CCC(C)C(=O)O[C@H]1[C@@]2(C)C[C@]3(O)[C@@]1(O)C(=O)C1=C(CC[C@]4(C)C1=CC(=O)O[C@H]4c1ccoc1)[C@]3(C)[C@H]2C(O)C(=O)OC | NL4-3 |  | SupT1 | luciferase / luminescence | pseudotyped | 20 µM | 14.34% |
| CN(C)CCC=C1c2ccccc2CCc2ccccc21 | IIIB |  | MOLT-3 | syncytia |  | 10 µg/mL | 19% |
| CC(C)Nc1cccnc1N1CCN(C(=O)c2cc3ccccc3[nH]2)CC1 | Seropositive clinical isolate A |  | PBMC | MTT |  | 1 µM | 100% |
| C/C=C(\C)C(=O)O[C@H]1[C@@]2(C)C[C@]3(O)[C@@]1(O)[C@H]1OC4(C)O[C@@]5(C[C@H](O)[C@]6(C)C(=CC(=O)O[C@H]6c6ccoc6)[C@@]15O4)[C@]3(C)[C@H]2CC(=O)OC | NL4-3 |  | SupT1 | luciferase / luminescence | pseudotyped | 100 µM | 23.86% |
| COc1ccc(CN[C@@H](C(=O)N[C@H]2c3ccccc3C[C@H]2O)[C@H](O)[C@H](Cc2ccccc2)NC(=O)[C@@H](NC(=O)OCc2ccccc2)C(C)(C)C)cc1 | A018C |  | Primary T4 cells + T4 | p24 |  | 0.28 µM | 90% |
| COC(=O)[C@@H]1C2CCC(C[C@@H]1OC(=O)c1ccccc1)N2C | IIIB |  | U-937 | p24 |  | 50 µg/mL | <0% |
| C/C=C(\C)C(=O)O[C@@H]1[C@@H](OC(C)=O)[C@H]2[C@@H](CC=C3C[C@@H](O[C@H]4C[C@@H](OC)[C@H](O[C@@H]5OC(C)[C@@H](O[C@@H]6OC(CO)[C@@H](O[C@@H]7OC(CO)[C@@H](O)[C@H](O)C7O)[C@H](O)C6O)[C@H](OC)C5O)C(C)O4)CC[C@@]32C)[C@@]2(O)CC[C@H](C(C)=O)[C@@]12C |  |  | SupT1 | luciferase | pseudotyped | 30 µM | 48.83% |
| COc1ccccc1CN[C@H]1C2CCN(CC2)[C@H]1C(c1ccccc1)c1ccccc1 | UG024 Primary X4 isolate |  | Macrophage + Monocytes/macrophages | RT activity |  | 0.1 µM | 0% |
| CC(C)(O)c1cccc(CN2C(=O)N(Cc3cccc(C(C)(C)O)c3)[C@H](Cc3ccccc3)[C@H](O)[C@@H](O)[C@H]2Cc2ccccc2)c1 | HXB2 | PR-V82F/184V | MT-2/MT-4 + MT-2 | p24 |  | 5.7785 µM | 90% |
| COc1ccc(CN[C@@H](C(=O)N[C@H](C(=O)NCc2nc3ccccc3[nH]2)C(C)C)[C@H](O)[C@H](Cc2ccccc2)NC(=O)[C@@H](NC(=O)OCc2ccccc2)C(C)(C)C)cc1 | BaL |  | Monocytes + Monocyte | p24 |  | 0.021 µM | 90% |
| COc1ccc(OC[C@H]2CN(C)CC[C@@H]2c2ccccc2)cc1 | IIIB |  | MOLT-3 | syncytia |  | 4 µg/mL | 20% |
| Cc1cn([C@H]2C[C@H](N=[N+]=[N-])[C@@H](CO)O2)c(=O)[nH]c1=O | BaL |  | Macrophage + Monocytes/macrophages | p24 |  | 0.1 µM | 87% |
| Oc1ccc(/C=C/c2cc(O)cc(O)c2)cc1 | ddI-resistant (RT K65R/L74V/M184V) | RT-K65R L74V M184V | PBMC | p24 |  | 5 µM | 30% |

5 of the rows above, restated:

| SMILES | strain | mutations | cell line | read by | setting | dose | result |
|---|---|---|---|---|---|---|---|
| O=c1[nH]cnc2c1ncn2[C@H]1CC[C@@H](CO)O1 | IIIB |  | PBMC | p24 |  | 0.25 µM | 30% |
| COc1ccc(OC[C@@H]2CN(C)CC[C@H]2c2ccccc2)cc1 | IIIB |  | MOLT-3 | syncytia |  | 20 µg/mL | 50% |
| Oc1ccc(/C=C/c2cc(O)cc(O)c2)cc1 | ddI-resistant (RT K65R/L74V/M184V) | RT-K65R L74V M184V | PBMC | p24 |  | 5 µM | 30% |
| O=C(O)/C=C/c1ccc[c]([Sb](=[O])([OH])[OH])c1 | 92US077 X4/R5 clinical isolate |  | MAGI | β-galactosidase |  | 20 µM | 55.9% |
| Cc1ccnc2c1NC(=O)c1cccnc1N2C1CC1 | Ba-L-85 |  | Macrophage | p24 |  | 0.1 µM | 63% |

Percent inhibition refers to the dose given; in toxicity tests it is the harm to the cells. Rows are shuffled and stem from different studies.